Pooled drug test results. Numbers come from NIAID ChemDB, via PubChem.

Common to all: tests in culture; species: HIV-1; cells: MT-4; measure: EC50

ECn is the concentration giving n% inhibition of infection, replication or growth. Conditions beyond the fields shown may differ between rows. An empty or dashed field is not shown.

SMILES	strain	changes	read by	value
CC(NC(=S)Nc1nc2ccccc2s1)c1ccccc1	IIIB	MDR	MTT	3 µM
O=c1[nH]c(=O)n([C@H]2CC[C@@H](CO)O2)cc1[N+](=O)[O-]				>100 µM
C=C(C)[C@@H]1CC[C@]2(NC[C@H]([C@@H](C)O)N3CCS(=O)(=O)CC3)CC[C@]3(C)[C@H](CC[C@@H]4[C@@]5(C)CC[C@H](OC(=O)[C@H]6C[C@@H](C(=O)O)C6(C)C)C(C)(C)[C@@H]5CC[C@]43C)[C@@H]12	NL4-3		p24 / ELISA	<0.01 µM
Cc1c(Cl)nc(Nc2ccc(C#N)cc2)nc1Oc1ccc2ccccc2c1Br	IIIB	WT	MTT	0.06 µM
Cc1ccccc1S(=O)(=O)N1C[C@@H](O)[C@@H](Cc2ccccc2)N(Cc2ccc(O)cc2)C(=O)N1Cc1ccc(O)cc1			cytopathic effect / MTT	0.238 µM
CCCCOc1nc(Cc2ccccc2)c(C)c(=O)[nH]1	IIIB		cytopathic effect / MTT	6.2 µM
Nc1cn([C@@H]2CC[C@@H](CO)O2)c(=O)[nH]c1=O				>100 µM
Cc1cc(C(C)(C)C)ccc1NC(=S)Nc1nc2ccccc2s1	IIIB		MTT	>8.6 µM
CCOC(NC(=S)Nc1ccccn1)C(=O)c1ccc(Cl)cc1	IIIB			69.48 µM
Cc1cn([C@H]2C[C@H](N=[N+]=[N-])[C@@H](CO)O2)c(=O)[nH]c1=O	IIIB		MTT	0.022 µM
Clc1cccc(Nn2cnc3c2CCCC3)c1	SO561945 (RT K103N Y181C)	RT-K103N Y181C	cytopathic effect / MTT	>67.29 µM
Cc1nc2ccccc2c(-c2cc(F)c3c(c2C)CCCO3)c1[C@H](OC(C)(C)C)C(=O)O	NL4-3	T124A/T125A	luminescence	0.0079 µM
CC(C)[C@H](CN[C@]12CC[C@@H](C3(C)CC3)[C@@H]1[C@H]1CC[C@@H]3[C@@]4(C)CC[C@H](OC(=O)[C@H]5C[C@@H](C(=O)O)C5(C)C)C(C)(C)[C@@H]4CC[C@@]3(C)[C@]1(C)CC2)N1CCS(=O)(=O)CC1	NL4-3	V7A	p24 / ELISA	>0.1 µM
C=C1CN(S(=O)(=O)c2ccc(C)cc2)CCCN(C(C)CC)CCCN(S(=O)(=O)c2ccc(C)cc2)C1	NL4-3		p24	3.52 µM
Nc1ncnc2c1ncn2[C@@H]1O[C@H](CO)[C@H]1CO			plaque count	4.3 µg/mL
Cc1cn([C@H]2C[C@H](N=[N+]=[N-])[C@@H](CO)O2)c(=O)[nH]c1=O	IIIB		MTT	0.002 µg/mL
Cc1cc(C#CCCO)cc(C)c1Oc1ccnc(Nc2ccc(C#N)cc2)n1	IIIB	Y181C	MTT	0.185 µM
Fc1ccccc1NC(=S)Nc1nc2ccccc2s1	IIIB		MTT	>27 µM
C=C1CN(S(=O)(=O)c2ccc(C)cc2)CCCN(C(=O)OCCC)CCCN(S(=O)(=O)c2ccc(C)cc2)C1	NL4-3		p24	2.6 µM
CCCCCOc1nc(Cc2ccccc2)cc(=O)[nH]1	IIIB		cytopathic effect / MTT	37 µM
CCc1c(NC)nc(Nc2ccc(C#N)cc2)nc1Oc1ccc2cc(C#N)ccc2c1	IIIB	K103N + Y181C	MTT	59.52 µM
Cc1cccc(Nn2cnc(C)c2C)c1	NL4-3		cytopathic effect / MTT	>312 µM
CC1([C@@H]2CC[C@]3(NC[C@H](CF)N4CCS(=O)(=O)CC4)CC[C@]4(C)[C@H](CC[C@@H]5[C@@]6(C)CC[C@H](OC(=O)[C@H]7C[C@@H](C(=O)O)C7(C)C)C(C)(C)[C@@H]6CC[C@]54C)[C@@H]23)CC1	NL4-3	V7A	p24 / ELISA	<0.05 µM
Cc1c(Cc2ccccc2)nc(OC(C)C)[nH]c1=O	IIIB		cytopathic effect / MTT	16 µM
C=C1CN(S(=O)(=O)c2ccc(C)cc2)CCCN(C2CCCC2)CCCN(S(=O)(=O)c2ccc(C)cc2)C1	NL4-3		p24	6.39 µM
CCN1CCn2c(=S)[nH]c3cc(Cl)cc(c32)S1(=O)=O			cytopathic effect / MTT	127 µM
S=C(Nc1nc2ccccc2s1)Nc1ccccc1Br	IIIB		MTT	>1.6 µM
Cc1cc(C)cc(Nn2cnc(C)c2-c2ccccc2)c1	SO561945 (RT K103N Y181C)	RT-K103N Y181C	cytopathic effect / MTT	>20.44 µM
CCc1c(NC)nc(Nc2ccc(C#N)cc2)nc1Oc1ccc2cc(C#N)ccc2c1Br	IIIB	WT	MTT	0.139 µM
Nc1nc(NC2CC2)c2ncn([C@H]3CO[C@@H](CO)O3)c2n1	RF		RT activity	6.7 µM
CNc1nc(Nc2ccc(C#N)cc2)nc(Oc2ccc3ccccc3c2Br)c1C(C)C	IIIB	WT	MTT	0.106 µM
CCc1ncn(Nc2cccc(C)c2)c1-c1ccccc1	IIIB		cytopathic effect / MTT	>27.87 µM
CC1(C)CC=C(c2cn(-c3nccc(C(=O)NC4CCC(N5CC6CCC(C5)O6)CC4)n3)c3ccc(F)c([C@H](OC(C)(C)C)C(=O)O)c23)CC1	NL4-3	D167E	luminescence	0.0033 µM
COc1nc(Cc2ccccc2)cc(=O)[nH]1	IIIB		cytopathic effect / MTT	>200 µM
O=C(NCc1ccc(F)cc1)C1C(=O)N(O)C(=O)c2ccccc21				2.34 µM
Cc1ncn(Nc2cccc(Cl)c2)c1-c1cccc(C#N)c1	NL4-3		cytopathic effect / MTT	8.91 µM
CC1([C@@H]2CC[C@]3(NCC(C)(C)N4CCS(=O)(=O)CC4)CC[C@]4(C)[C@H](CC[C@@H]5[C@@]6(C)CC[C@H](OC(=O)[C@H]7C[C@@H](C(=O)O)C7(C)C)C(C)(C)[C@@H]6CC[C@]54C)[C@@H]23)CC1	NL4-3		p24 / ELISA	>0.05 µM
Nc1ncnc2c1ncn2[C@@H]1O[C@H](CO)[C@@H]1O			plaque count	0.54 µg/mL
COCCOCCOCCO[C@H](C)[C@@H](CN[C@]12CC[C@@H](C3(C)CC3)[C@@H]1[C@H]1CC[C@@H]3[C@@]4(C)CC[C@H](OC(=O)[C@H]5C[C@@H](C(=O)O)C5(C)C)C(C)(C)[C@@H]4CC[C@@]3(C)[C@]1(C)CC2)N1CCS(=O)(=O)CC1	NL4-3		p24 / ELISA	<0.01 µM
C#Cc1ccc(Nc2nccc(Oc3c(C)cc(-c4cn(Cc5ccc(C(=O)OC)cc5)nn4)cc3C)n2)cc1	IIIB	K103N	MTT	0.35 µM
CC(C)(C)[Si](OC[C@H]1OC(N2C(=O)NC(=O)/C2=C/c2ccccc2)C[C@@H]1N=[N+]=[N-])(c1ccccc1)c1ccccc1	IIIB		ELISA	>10 µM
CCN1C(C)Cn2c(=S)[nH]c3cc(Cl)cc(c32)S1(=O)=O			cytopathic effect / MTT	46 µM
N#Cc1ccc(Nc2nccc(Oc3ccc4ccccc4c3)n2)cc1	IIIB	WT	MTT	0.01 µM
C=C1CN(S(=O)(=O)c2ccc(C)cc2)CCCN(Cc2ccncc2)CCCN(S(=O)(=O)c2ccc(C)cc2)C1	NL4-3		p24	6.13 µM
CCOC(=O)C(C)N(CC)S(=O)(=O)c1cc(Cl)ccc1N			cytopathic effect / MTT	>200 µM
C/C=C1\C(=O)NC(=O)N1[C@H]1C[C@H](N=[N+]=[N-])[C@@H](CO)O1	IIIB		ELISA	>100 µM
O=C(c1ccc(Cl)cc1)C(O)NC(=S)Nc1ccccn1	IIIB			166 µM
Nc1cn([C@@H]2C[C@H](O)[C@@H](CO)O2)c(=O)nc1N				>100 µM
CC=CCN1C(C)C(=S)Nc2ccc(Cl)cc2S1(=O)=O			cytopathic effect / MTT	1.4 µM
CCc1c(NC)nc(Nc2ccc(C#N)cc2)nc1Oc1ccc2cc(Br)ccc2c1Br	IIIB	WT	MTT	0.08 µM
CC1([C@@H]2CC[C@]3(NC[C@H](C(=O)O)N4CCS(=O)(=O)CC4)CC[C@]4(C)[C@H](CC[C@@H]5[C@@]6(C)CC[C@H](OC(=O)[C@H]7C[C@@H](C(=O)O)C7(C)C)C(C)(C)[C@@H]6CC[C@]54C)[C@@H]23)CC1	NL4-3	V7A	p24 / ELISA	>0.1 µM
Nc1nc(=O)n([C@H]2C[C@H](O)[C@@H](CO)O2)cc1[N+](=O)[O-]				>100 µM
CC(C)[C@@H](CN[C@]12CC[C@@H](C3(C)CC3)[C@@H]1[C@H]1CC[C@@H]3[C@@]4(C)CC[C@H](OC(=O)[C@H]5C[C@@H](C(=O)O)C5(C)C)C(C)(C)[C@@H]4CC[C@@]3(C)[C@]1(C)CC2)N1CCS(=O)(=O)CC1	NL4-3	V7A	p24 / ELISA	<0.05 µM
O=[N+]([O-])c1ccc(NC(=S)Nc2nc3ccccc3s2)cc1	IIIB		MTT	>100 µM
C#Cc1ccc(Nc2nccc(Oc3c(C)cc(-c4cn(CCc5cccs5)nn4)cc3C)n2)cc1	IIIB	F227L and V106A	MTT	>5.53 µM
CC(=O)OCC1=C[C@@H]2C(=O)[C@]3(C=C(C)[C@H](OC(C)=O)[C@@]3(O)[C@@H]1OC(C)=O)[C@H](C)C[C@@H]1[C@H]2C1(C)C	HE	Nevirapine resistant	cytopathic effect / MTT	0.13 µM
Cc1[nH]c(=S)n(Nc2ccccc2)c1-c1ccccc1	IIIB		cytopathic effect / MTT	>191 µM
C[C@@H](CN[C@]12CC[C@@H](C3(C)CC3)[C@@H]1[C@H]1CC[C@@H]3[C@@]4(C)CC[C@H](OC(=O)[C@H]5C[C@@H](C(=O)O)C5(C)C)C(C)(C)[C@@H]4CC[C@@]3(C)[C@]1(C)CC2)N1CCS(=O)(=O)CC1	NL4-3		p24 / ELISA	<0.01 µM
CCc1[nH]c(=S)n(Nc2cccc(Cl)c2)c1-c1ccccc1	SO561945 (RT K103N Y181C)	RT-K103N Y181C	cytopathic effect / MTT	>38.96 µM
CC(C)OC(=O)OCOP(=O)(CO[C@H](C)Cn1cnc2c(N)ncnc21)OCOC(=O)OC(C)C	IIIB		MTT	0.04 µg/mL

For reference, 4 entries again:

SMILES | strain | changes | read by | value
Cc1cc(C(C)(C)C)ccc1NC(=S)Nc1nc2ccccc2s1 | IIIB |  | MTT | >8.6 µM
Nc1nc(=O)n([C@H]2C[C@H](O)[C@@H](CO)O2)cc1[N+](=O)[O-] |  |  |  | >100 µM
C=C1CN(S(=O)(=O)c2ccc(C)cc2)CCCN(C2CCCC2)CCCN(S(=O)(=O)c2ccc(C)cc2)C1 | NL4-3 |  | p24 | 6.39 µM
C=C1CN(S(=O)(=O)c2ccc(C)cc2)CCCN(C(=O)OCCC)CCCN(S(=O)(=O)c2ccc(C)cc2)C1 | NL4-3 |  | p24 | 2.6 µM